A mixed list of measured activities; the numbers were collected in NIAID ChemDB.

Common to all: growth or infection tests; organism: HIV-1; read-out: EC50

An empty or dashed field is not shown.

smiles	strain or isolate	changes	cells	method	conditions	result
O=c1[nH]c(=O)n([C@H]2C[C@H](F)[C@@H](CO)O2)cc1Cl	HXB2		CD4+HELA + HeLa	plaque count		15.4 µM
Cc1cc(OC[C@H]2CNCCO2)ccc1NC(=O)COc1ccc(Cl)cc1C(=O)c1cc(C#N)cc(OC(F)F)c1			HeLa			0.0003 µM
O=C1Nc2ccc(Cl)cc2[C@@](C#CC2CC2)(C(F)(F)F)O1	NL4-3	+Vpx	MDM			0.071 µM
CCOC(=O)c1cc(C#N)cc(C(=O)c2cc(Cl)ccc2OCC(=O)Nc2ccc(S(N)(=O)=O)cc2C)c1		K103N	HeLa			0.0012 µM
Cc1cn([C@H]2C[C@H](N=[N+]=[N-])[C@@H](CO)O2)c(=O)[nH]c1=O	HXB2		HELA/CD4 + HELA CD4+	plaque count		0.02 µM
CON(C)C(=O)c1cc(C#N)cc(C(=O)c2cc(Cl)ccc2OCC(=O)Nc2ccc(S(N)(=O)=O)cc2C)c1		K103N	HeLa			0.013 µM
O=C([O-])c1cc(C(=O)[O-])cc(-c2c3nc(c(-c4cc(C(=O)[O-])cc(C(=O)[O-])c4)c4ccc([n-]4)c(-c4cc(C(=O)[O-])cc(C(=O)[O-])c4)c4nc(c(-c5cc(C(=O)[O-])cc(C(=O)[O-])c5)c5ccc2[n-]5)C=C4)C=C3)c1	BaL		MAGI cell	β-galactosidase		0.35 µM
O=c1[nH]cnc2c1ncn2[C@H]1CC[C@@H](CO)O1	IIIB		PBL (resting) + PBL	RT activity		<0.1 µM
CC1CNCCN1S(=O)(=O)c1cccc2cnccc12			U1/HIV-1(PMA) + U1	p24		2 µM
Nc1nc(NC2CC2)c2ncn([C@H]3C=C[C@@H](CO)C3)c2n1	NL4-3	+Vpx	Primary T lymphocytes			0.009 µM
Cn1c2ccccc2c2c3c(c4c5ccccc5n(CCC#N)c4c21)CNC3=O			U1/HIV-1(PMA) + U1	syncytia		0.04 µM
O=C([O-])c1cc(COc2ccc(-c3c4nc(c(-c5ccc(OCc6cc(C(=O)[O-])cc(C(=O)[O-])c6)cc5)c5ccc([nH]5)c(-c5ccc(OCc6cc(C(=O)[O-])cc(C(=O)[O-])c6)cc5)c5nc(c(-c6ccc(OCc7cc(C(=O)[O-])cc(C(=O)[O-])c7)cc6)c6ccc3[nH]6)C=C5)C=C4)cc2)cc(C(=O)[O-])c1	BaL		MAGI cell	β-galactosidase		0.19 µM
O=C(O)P(=O)(O)O	LAI viral clone (RT-E89G)	RT-E89G	HT4LACZ-1 + HT4 LacZ-1	syncytia		504 µM
Cc1cn([C@H]2C[C@H](N=[N+]=[N-])[C@@H](CO)O2)c(=O)[nH]c1=O	BZ X4		PBL (resting) + PBL	RT activity		>4 µM
C/C(=C(/CCOC(=O)C(C)C)SS/C(CCOC(=O)C(C)C)=C(\C)N(C=O)Cc1cnc(C)nc1N)N(C=O)Cc1cnc(C)nc1N	LAV-1		CEM/HIV-1(LAV-1) + CEM	p24		>50 µM
Cc1cc(S(N)(=O)=O)ccc1NC(=O)COc1ccc(Cl)cc1C(=O)c1cc(Cl)cc(C#N)c1	NNRTI-resistant (RT V106A Y181C)	RT-V106A Y181C	MAGI	β-galactosidase		0.0009 µM
O=C(O)C(O)c1ccccc1	JR-FL		HELA-TAT + TZM	luciferase		<5 µg/mL
COC(=O)Nc1cc(C#N)cc(C(=O)c2cc(Cl)ccc2OCC(=O)Nc2ccc(S(N)(=O)=O)cc2C)c1		WTRVA	HeLa			0.0035 µM
Nc1nc(=O)n([C@H]2CS[C@@H](CO)O2)cc1F	HXB2	RT-M184I	HELA/CD4 + HELA CD4+	plaque count		1.7 µM
Cc1cccc2c1OP(=O)(OC[C@@H]1C=C[C@H](n3cnc4c(=O)[nH]cnc43)O1)OC2			CEM + CEM/0			5.33 µM
O=C([O-])c1ccc(C2=C3C=CC(=N3)C(c3ccc(C(=O)[O-])cc3)=C3C=CC(=N3)C(=c3ccc(=C([O-])[O-])cc3)c3ccc([n-]3)C(c3ccc(C(=O)[O-])cc3)=C3C=CC2=N3)cc1	BaL		MAGI cell	β-galactosidase		0.89 µM
Cn1cc(C(=O)O)c(=O)c2cc(F)c(N3CC=C(c4ccccc4)CC3)c(C(F)(F)F)c21	IIIB		MOLT-4/U1(HIV-1(IIIB)) + MOLT-4	p24		0.06 µM
CC(=O)Nc1cc(C#N)cc(C(=O)c2cc(Cl)ccc2OCC(=O)Nc2ccc(S(N)(=O)=O)cc2C)c1		V106A	HeLa			1.1 µM
[Li+]	GUN1		PBL	p24		>1000 µg/mL
C#C[C@]1(CO)O[C@@H](n2cnc3c(N)nc(F)nc32)C[C@@H]1O	NL4-3		U373-CD4-CXCR4	luminescence	pseudotyped	0.0065 µM
Cn1c2ccccc2c2c3c(c4c5ccccc5n(CC(F)F)c4c21)CNC3=O			U1/HIV-1(PMA) + U1	p24		0.08 µM
C#C[C@]1(CO)O[C@@H](n2cnc3c(NC(=O)OCC)nc(F)nc32)C[C@@H]1OC(=O)CCCCCCCCC	NL4-3		U373-CD4-CXCR4	luminescence	pseudotyped	0.1651 µM
Cc1ccnc2c1NC(=O)c1cccnc1N2C1CC1	IIIB		PBL (resting) + PBL	RT activity		~0.03 µM
O=C1CN=C(c2ccc[nH]2)c2cc(Cl)ccc2N1	IIIB/LAI		MOLT-4 (CLONE 8) + MOLT-4	antigen		0.4 µM
Nc1ccn([C@H]2CC[C@@H](CO)O2)c(=O)n1	NL4-3		Jurkat cells			0.164 µM
C#C[C@]1(CO)O[C@@H](n2cnc3c(N)nc(F)nc32)C[C@@H]1OC(=O)C(C)(C)C	NL4-3		U373-CD4-CXCR4	luminescence	pseudotyped	0.2625 µM
Cn1c2ccccc2c2c1cc(C#N)c(=O)n2-c1ccc([N+](=O)[O-])cc1	Recombinant	RT-M184V	HeLa	luciferase		0.176 µM
CN(C)CCCn1c2ccc(O)cc2c2c3c(c4c5cc(O)ccc5[nH]c4c21)C(=O)NC3=O			U1/HIV-1(+PMA) + U1	p24		0.036 µM
O=c1[nH]cnc2c1ncn2[C@H]1CC[C@@H](CO)O1	IIIB		PBL(PHA STIM.) + PBL	RT activity		19 ± 8.3 µM
COc1cc(C#N)cc(C(=O)c2cc(Cl)ccc2OCC(=O)Nc2ccc(S(N)(=O)=O)cc2C)c1		K103N	HeLa			0.0005 µM
Cc1cn([C@H]2C[C@H](N=[N+]=[N-])[C@@H](CO)O2)c(=O)[nH]c1=O	NL4-3		ACH2 + TZM-bl	luciferase		0.00134 µM
CNC(=O)c1cc(C#N)cc(C(=O)c2cc(Cl)ccc2OCC(=O)Nc2ccc(S(N)(=O)=O)cc2C)c1		Y181C	HeLa			>2 µM
CC(=O)N[C@@H](CS)C(=O)O	IIIB		H9(HIV-1(IIIB)) + H9	p24		>2500 µM
C#C[C@]1(CO)O[C@@H](n2cnc3c(N)nc(F)nc32)C[C@@H]1OC(=O)c1ccccc1	NL4-3		U373-CD4-CXCR4	luminescence	pseudotyped	0.0408 µM
Cc1cn([C@H]2C[C@H](N=[N+]=[N-])[C@@H](CO)O2)c(=O)[nH]c1=O	NRTI resistant	RT-M41L E44D D67N T69D V118I M184V L210W T215Y	HeLa	luciferase		0.897 µM
NS(=O)(=O)c1ccc(Oc2ccc(NC(=O)N[C@@H]3[C@@H]4CCc5c(F)ccc(F)c5[C@@H]43)cc2)cc1	IIIB	K103N	MT-4 cells	ELISA		0.0032 µM
C#C[C@]1(CO)O[C@@H](n2cnc3c(N)nc(F)nc32)C[C@@H]1OC(=O)CCCCCC	NL4-3		U373-CD4-CXCR4	luminescence	pseudotyped	0.0041 µM
Cc1cc(=O)c2ccc(N=C=S)cc2o1	IIIB		CEM-GFP	p24 / ELISA		0.242 µM
C#C[C@]1(CO)O[C@@H](n2cnc3c(N)nc(F)nc32)C[C@@H]1OC(=O)C(C)(C)CCC	NL4-3		U373-CD4-CXCR4	luminescence	pseudotyped	0.0464 µM
Cc1cc(S(N)(=O)=O)ccc1NC(=O)COc1ccc(Cl)cc1C(=O)c1cc(C#N)cc(C(=O)O)c1		WTRVA	HeLa			0.93 µM
CCOP(=O)(COc1ccc(C[C@H](NC(=O)O[C@H]2CO[C@H]3OCC[C@H]32)[C@H](O)CN(CC(C)C)S(=O)(=O)c2ccc(OC)cc2)cc1)OCC	IIIB		MT-2 + MT-4			0.0035 µM
Cc1nnc(C(C)C)n1C1C[C@H]2CC[C@@H](C1)N2CC[C@H](NC(=O)C1CCC(F)(F)CC1)c1ccccc1	SF162		ACH2 + TZM-bl	luciferase		0.00261 µM
C#C[C@]1(CO)O[C@@H](n2cnc3c(NC(=O)CCCCCC)nc(F)nc32)C[C@@H]1OC(=O)CCCCCC	NL4-3		U373-CD4-CXCR4	luminescence	pseudotyped	0.0094 µM

3 of the rows above, restated:

smiles	strain or isolate	changes	cells	method	conditions	result
Cn1c2ccccc2c2c3c(c4c5ccccc5n(CCC#N)c4c21)CNC3=O			U1/HIV-1(PMA) + U1	syncytia		0.04 µM
Cc1cc(OC[C@H]2CNCCO2)ccc1NC(=O)COc1ccc(Cl)cc1C(=O)c1cc(C#N)cc(OC(F)F)c1			HeLa			0.0003 µM
Cc1cn([C@H]2C[C@H](N=[N+]=[N-])[C@@H](CO)O2)c(=O)[nH]c1=O	HXB2		HELA/CD4 + HELA CD4+	plaque count		0.02 µM

ECn is the concentration giving n% inhibition of infection, replication or growth. Rows are shuffled and stem from different studies.